This is an account of results in patent US7186736B1, “NNI for treatment of multi-drug resistant HIV” (Parker Hughes Institute, priority 1999, dated 2007).

pIC50: −log10 of the molar value.

Assay [1] addresses purified recombinant HIV RT (Human immunodeficiency virus type 1 group M subtype B, UniProt P04585). Put plainly: Purified RT assay, cell-free Quan-T-RT system (scintillation proximity). It is filed as biochemical. The conditions noted are these: read-out: RRT (IC50[rRT]).
The test system of assay [2] is HIV strain HTLV-IIIB (WT). Description: p24 production in PBMNC infected with HTLV-IIIB. The assay is classed as cell-based, HIV-1. To be noted: read-out: IC50 p24.
Assay [3] relates to HIV strain RT-MDR (74V, 41L, 106A, 215Y). The conditions noted are these: read-out: IC50 p24, PBMNC.

The pIC50 is −log10 of the IC50, conventionally taken in molar units. Turning to `S=C(NCCC1=CCCCC1)Nc1ccc(Cl)cn1`, the pIC50 is 5.43 in assay [1] and 8.52 in assay [2].

For the compound `S=C(NCCN1CCCCC1)Nc1ccc(Br)cn1`, the pIC50 in assay [1] is 5.24; in assay [2], greater than 9.00; in assay [3], less than 6.00.

As to `S=C(NCCN1CCOCC1)Nc1ccc(Br)cn1`, the negative logarithm of the IC50 (pIC50) in assay [1] is less than 5.00; in assay [2], 5.42; in assay [3], less than 6.00.
